Here are results for 1 sequence from patent US5861501.

In series [1] the test system is influenza endonuclease (purified viral ribonucleoprotein, low-pH treated; polymerase-associated cap-dependent endonuclease) (Influenza virus). The series is described as follows: filter. To be noted: 5' m7Gppp cap; 2'-OMe on first transcribed G; 3'-terminal 3'-dA; 100 mM Tris-Cl pH 8.0, 50 mM KCl, 0.25 mM MgCl2, 5 mM DTT, 25 C; 50 nM uncapped triphosphate 10-mer included; 95% displaced by unlabeled capped 10-mer.

Series [2] has the same test system. Kind of series: inhibition. The following applies: 5' m7Gppp cap; 2'-OMe on first transcribed G; 3'-terminal 3'-dA; inhibition of capped 19-mer cleavage; 100 mM Tris-Cl pH 8, 50 mM KCl, 5 mM DTT, MgCl2 (printed 250 mM).

Sequence GGUAUUAAUA [capped 10-mer] registered a Kd in series [1] of 0.17 nM. In series [2], this sequence registered an IC50 of 0.083 nM.
